# Laboratory results as given in article PMC12624782 (The Journal of Biological Chemistry, 2025).
# Chains of the proteins cited; added tags and fusions are not shown. Residues count along the entry.
# UniProt A0A3B5XZG4, 1-234: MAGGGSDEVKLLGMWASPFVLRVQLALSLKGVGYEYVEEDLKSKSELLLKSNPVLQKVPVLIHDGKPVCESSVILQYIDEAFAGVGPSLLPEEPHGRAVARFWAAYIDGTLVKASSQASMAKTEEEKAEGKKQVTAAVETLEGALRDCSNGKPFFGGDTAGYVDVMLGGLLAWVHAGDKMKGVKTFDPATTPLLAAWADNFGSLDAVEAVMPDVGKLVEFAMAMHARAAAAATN
# Biological target: TaGST-10 (Triticum aestivum, UniProt A0A3B5XZG4)
# Assay: crystal structure, […] Å (ligand modeled from electron density)
smiles,measurement,value
CC1=C[C@H]2O[C@@H]3[C@H](O)C[C@](C)([C@]24CO[C@@]1(O)[C@H]4O)[C@]3(O)CSC[C@H](N)C(=O)O,"crystal structure, 2.3 Å (ligand modeled from electron density)",Chain A of TaGST-10 contained an additional ligand that was modeled as DON-13-cysteine based on the electron density
